Test results as given in PubChem BioAssay AID493162 (ICCB-Longwood Screening Facility, Harvard Medical School, 2011).
The entries are a selection whose mix differs from that of the whole data set. Calls of active or inactive are those of the source. No stated cut-off is given here; in the data, active means normalized absorbance mostly below about 85% (no sharp cut-off); inactive means mostly above about 86%.

test system: Vaccinia virus DNA polymerase (E9) processive complex; experiment: vaccinia E9 polymerase processive synthesis inhibitors, primary screen, biochemical, absorbance (AID 493162); conditions: in vitro processive DNA synthesis, absorbance read-out; stronger effect = lower value; concentration not given here

Row | Compound | normalized absorbance
1 | CC1CN(CCc2ccccc2)CCC1=O (configuration not stated) | inactive: 99.3%
2 | CC(C)(C)OC(=O)N1CCC(Nc2ccc(OC(F)(F)F)cc2)CC1 | inactive: 96.6%
3 | FC(F)(F)Oc1ccc(NC2CCNCC2)cc1 | inactive: 99.2%
4 | NC(=O)C1(Nc2ccccc2)CCN(Cc2ccccc2)CC1 | inactive: 99.9%
5 | O=c1[nH]c2ccccc2n1C1CCN(CCCC(c2ccc(F)cc2)c2ccc(F)cc2Cl)CC1 (configuration not stated) | inactive: 91.6%
6 | CC1CN(CCc2ccccc2)C(C)CC1=O (configuration not stated) | inactive: 97.5%
7 | CC(C)(C)OC(=O)N1CCC(Nc2ccccc2)CC1 | inactive: 109%
